Pooled drug test results. Numbers come from NIAID ChemDB, via PubChem.

MIC bound comes from a single tested concentration.

{"smiles": "O=C1c2ccccc2C(=O)c2c(Cl)cccc21", "species": "Mycobacterium tuberculosis", "strain": "H37Rv", "kind": "culture", "endpoint": "MIC", "result": ">100 µg/mL"}
{"smiles": "COc1ccc(C2c3cn[nH]c3CC3CCCCC32)cc1", "species": "Mycobacterium tuberculosis", "strain": "H37Rv", "method": "BACTEC", "kind": "culture", "endpoint": "inhibition", "dose": "12.5 µg/mL", "result": "3%"}
{"smiles": "O=C1c2ccccc2-c2ccc(Cl)c3cccc1c23", "species": "Mycobacterium tuberculosis", "strain": "H37Rv", "kind": "culture", "endpoint": "MIC", "result": "100 µg/mL"}
{"smiles": "COC(=O)NS(=O)(=O)n1cc[n+](C)c1", "species": "Mycobacterium tuberculosis", "strain": "H37Rv", "method": "BACTEC", "kind": "culture", "endpoint": "inhibition", "dose": "12.5 µg/mL", "result": "1%"}
{"smiles": "Cc1cc(Cl)nc(Cl)c1CCCl", "species": "Mycobacterium tuberculosis", "strain": "H37Rv", "kind": "culture", "endpoint": "MIC", "result": "50 µg/mL"}
{"smiles": "c1ccc(N2CCN(c3cncc(-c4ccsc4)n3)CC2)nc1", "species": "Cytomegalovirus", "kind": "target", "endpoint": "inhibition", "target": "UL97 kinase", "dose": "1 µM", "result": "<50%"}
{"smiles": "CC1CCC(CC(=O)O)(CC(=O)O)CC1", "species": "Mycobacterium tuberculosis", "strain": "H37Rv", "kind": "culture", "endpoint": "MIC", "result": ">100 µg/mL"}
{"smiles": "COc1ccc(-n2cnn3c(=O)c4cn[nH]c4nc23)cc1", "species": "Mycobacterium tuberculosis", "strain": "H37Rv", "method": "resazurin", "kind": "culture", "endpoint": "inhibition", "dose": "6.25 µg/mL", "result": "2%"}
{"smiles": "c1ccc(C2CCN(c3cncc(-c4ccoc4)n3)CC2)cc1", "species": "Cytomegalovirus", "kind": "target", "endpoint": "IC50", "target": "UL97 kinase", "result": "<100 µM"}
{"smiles": "CCOc1c2c(nn(C)c1=O)Oc1ccccc1N2CCCN1CCOCC1", "species": "Mycobacterium tuberculosis", "strain": "H37Rv", "method": "BACTEC", "kind": "culture", "endpoint": "MIC bound", "result": ">12.5 µg/mL"}
{"smiles": "Cl.O=C(c1cnc2ccccc2c1)N1CCCCC1", "species": "Mycobacterium tuberculosis", "strain": "H37Rv", "kind": "culture", "endpoint": "MIC", "result": ">100 µg/mL"}
{"smiles": "CC(=O)c1ccc(-c2cncc(N3CCC(c4ccccc4)CC3)n2)cc1", "species": "Cytomegalovirus", "kind": "target", "endpoint": "inhibition", "target": "UL97 kinase", "dose": "1 µM", "result": "<50%"}
{"smiles": "COc1cc(=O)n(-c2ccccc2)nc1C#N", "species": "Mycobacterium tuberculosis", "strain": "H37Rv", "method": "BACTEC", "kind": "culture", "endpoint": "inhibition", "dose": "12.5 µg/mL", "result": "20%"}
{"smiles": "Fc1ccccc1N1CCN(c2cncc(-c3ccoc3)n2)CC1", "species": "Cytomegalovirus", "kind": "target", "endpoint": "IC50", "target": "UL97 kinase", "result": "<10 µM"}
{"smiles": "CCOC(COc1ccccc1)OCC", "species": "Mycobacterium tuberculosis", "strain": "H37Rv", "kind": "culture", "endpoint": "MIC", "result": ">100 µg/mL"}
{"smiles": "CSc1ccccc1-c1cncc(N2CCN(c3ccccn3)CC2)n1", "species": "Cytomegalovirus", "kind": "target", "endpoint": "inhibition", "target": "UL97 kinase", "dose": "10 µM", "result": ">15%"}
{"smiles": "CCOc1ccc(-c2nc(-c3oc4ccccc4c(=O)c3OC(C)=O)cs2)cc1", "species": "Mycobacterium tuberculosis", "strain": "H37Rv", "method": "BACTEC", "kind": "culture", "endpoint": "inhibition", "dose": "12.5 µg/mL", "result": "0%"}
{"smiles": "Cc1cc(N(CC(N)=O)CC2CCCO2)ccc1N", "species": "Mycobacterium tuberculosis", "strain": "H37Rv", "kind": "culture", "endpoint": "MIC", "result": "50 µg/mL"}
{"smiles": "c1coc(CNc2nccnc2-c2cc3ccccc3o2)c1", "species": "Cytomegalovirus", "kind": "target", "endpoint": "IC50", "target": "UL97 kinase", "result": "<100 µM"}
{"smiles": "NC1=NNC(=O)C1N=Nc1ccc(S(=O)(=O)Nc2nccs2)cc1", "species": "Mycobacterium tuberculosis", "strain": "H37Rv", "method": "BACTEC", "kind": "culture", "endpoint": "MIC bound", "result": ">12.5 µg/mL"}
{"smiles": "Fc1ccc(N2CCCCC2)c(NC(=S)c2ccncc2)c1", "method": "kinase activity", "kind": "host protein", "endpoint": "inhibition", "target": "ASK1", "dose": "10 µM", "result": "0%"}

Again, the opening 3 rows:

smiles,species,strain,method,kind,endpoint,target,dose,result
O=C1c2ccccc2C(=O)c2c(Cl)cccc21,Mycobacterium tuberculosis,H37Rv,-,culture,MIC,-,-,>100 µg/mL
COc1ccc(C2c3cn[nH]c3CC3CCCCC32)cc1,Mycobacterium tuberculosis,H37Rv,BACTEC,culture,inhibition,-,12.5 µg/mL,3%
O=C1c2ccccc2-c2ccc(Cl)c3cccc1c23,Mycobacterium tuberculosis,H37Rv,-,culture,MIC,-,-,100 µg/mL

Rows are shuffled and stem from different studies. ICn: concentration for n% inhibition. Blank or dashed fields: not listed here. Inhibition is in % at the dose shown (toxicity tests: loss of growth or viability).